According to the NIST ThermoML archive (doi:10.1021/acs.jced.7b00458):

Conditions: 100 kPa, Liquid; for electrical conductivity: Alternating current cell with electrodes; for viscosity: Concentric cylinders viscometry; for mass density: Vibrating tube method

CCCC[N+]1(C)CCCC1.O=S(=O)(F)[N-]S(=O)(=O)F [1-butyl-1-methylpyrrolidinium bis(fluorosulfonyl)amide]
Conditions | electrical conductivity [S/m] | mass density [kg/m3] | viscosity [mPa·s]
298.15 K | 0.866 | 1307 | 53.24
300.15 K | 0.917 | 1306 | 49.74
306.15 K | 1.09 | 1301 | 40.74
312.15 K | 1.27 | 1296 | 33.83
318.15 K | 1.47 | 1292 | 28.42
324.15 K | 1.68 | 1287 | 24.15
330.15 K | 1.91 | 1283 | 20.73
336.15 K | 2.16 | 1278 | 17.94
341.15 K | – | 1274 | 16.01
348.15 K | 2.69 | 1269 | 13.77
355.15 K | – | 1264 | 11.95
361.15 K | 3.31 | 1259 | 10.65
373.15 K | – | 1251 | 8.61

CCCCC[P+](CC)(CC)CC.O=S(=O)(F)[N-]S(=O)(=O)F [triethyl(pentyl)phosphonium bis(fluorosulfonyl)amide]
Conditions | electrical conductivity [S/m] | mass density [kg/m3] | viscosity [mPa·s]
298.15 K | 0.463 | 1219 | 69.38
300.15 K | 0.495 | 1217 | 64.02
306.15 K | 0.602 | 1213 | 50.72
312.15 K | 0.723 | 1208 | 40.86
318.15 K | 0.861 | 1204 | 33.4
324.15 K | 1.02 | 1199 | 27.65
330.15 K | 1.19 | 1195 | 23.17
336.15 K | 1.37 | 1191 | 19.66
341.15 K | – | 1187 | 17.25
348.15 K | 1.76 | 1182 | 14.52
355.15 K | – | 1177 | 12.37
361.15 K | 2.23 | 1173 | 10.86
373.15 K | – | 1165 | 8.543
